# According to US20150086555A1 (THERACLONE SCIENCES, published 2015):
# Numbering of substitutions follows the chain as printed.
# B1: TCN-550 (5096_F06) (antibody, V domains shown)
# VH: QVQLQESGPGLVKPSETLSLTCTVSGASINSHYWSWIRQPPGKGLEWIGYVYYSGSTTYNPSLKSRVTLSVDTSKNQFSLNLSSVTAADTAFYYCARHPYDVLTGSGDWFDPWGQGTLVTVSS
# VL: SYVLTQAPSVSVAPGQTARITCGGNAIGSKKVHWYQHKAGQAPVLVVYDDTDRPSGIPERFSGSNSWSTATLTINRVEAGDEADYYCQVWDFTIDHVVFGGGTKLTVL
# B2: TCN-555 (5246_L16) (antibody, V domains shown)
# VH: QVQLVQSGAEVKRPGSSVKVSCTASGGIFRKNAISWVRQAPGQGLEWMGGIIAVFNTANYAQKFQNRVKITADESGNTAYMELSSLTSDDTAVYYCASHPKYFYGSGSYPDFWGQGTLVTVSS
# VL: QSALTQPRSVSGSPGQSITISCTGGSSDIGASNSVSWYQQHPGKAPKLVIFDVTERPSGVPHRFSGSKSGNTASLTVSGLQPDDEADYFCCAYGGKYLVVFGGGTKVTVL
# B3: TCN-563 (5237_B21) (antibody, V domains shown)
# VH: B2 VH with V5A, N66G, T87R
# VL: B2 VL with I18V, G25S, I29V, F51Y, D83E
# B4: TCN-552 (5249_I23) (antibody, V domains shown)
# VH: QVQVVQSGAEVKKPGSSVRVSCQASGGTFMNYAIIWVRRAPGQGLEWMGGIIPVFPTPNYAQMFQGRVTISTDESRSTSFLELTNLRYEDTAVYYCARRIYHGGNSGFDFWGQGTLVTVSS
# VL: EIVLTQSPATLSLSPGERATLSCRASQSVGNYLAWYQQKPGQAPRLLIYDSSNRAPGIPARFSGSGSGTDFTLTISSLAPEDFAVYYCQQRSKWPPMYSFGHGTKLEIK
# B5: TCN-539 (5056_A08) (antibody, V domains shown)
# VH: QVQLVESGGGVVQPGRSLRLSCAASEITFITYAMHWVRQAPGKGLEWVALISDDGSNKFYADSVKGRFTISRDNSKNTLYLQMNSLRAEDTAAYYCAREGVYFDSGTYRGYFDYWGQETLVTVSS
# VL: EIVLTQSPATLSLSPGERATLSCRASQSVSSYLAWYQQKPGQAPRLLIYDASNRATGIPARFSGSGSGTDFTLTISSLEPEDFAVYYCQQRSHWPPITFGQGTRLEIK
# B6: TCN-558 (5248_H10b) (antibody, V domains shown)
# VH: QVQLVQSGSEVKKPGTSVKVSCTASGSVFTNYGISWVRQAPGQGLEWMGGIIPLFGAAKYAQKFQGRVTITADESTKTVYMELSRLTSKDTAIYFCAKAPRVYEYYFDQWGQGTPVTVSS
# VL: EIVMTQFPATLSVSPGERVTLSCRASQSVSNNLAWYQQKPGQPPRLLIYDASTRATGVPAKFSGTGSGTEFTLSISSLQSEDFAVYYCQQYHNWPPSYSFGLGTKLEIK
# B7: TCN-540 (5060_F05) (antibody, V domains shown)
# VH: QVQLVQSGGGVVQPGRSLRLSCAASGFTFSSYAMHWVRQAPGKGLEWVAIISYDGNDQYYTDSVKGRFTISRDSSKVYLQMHRLRPEDTAVYYCAKEFETSGYFHGSFDYWGQGILVTVSS
# VL: QSALTQPASVSGSPGQSITISCTGTSSDVGGYNYVSWYQQHPGKAPKLLIYEVTNWPSGVSNRFSGSKSGNTASLTISGLQAEDEADYYCSSYAGSSTWVFGGGTRVTVL
# B8: TCN-543 (5081_G23) (antibody, V domains shown)
# VH: QVHLVQSGAEVRKPGDSVKVSCKTSGYTFSTYPVAWVRQVPGQGLEWMGWISTYNGNTNFAQNFQGRVTLTTDTTTNTAYMEVRSLKFDDTAVYYCARVEGSYRDFWNNQNRFDPWGQGTLVTVSS
# VL: SYVLTQPPSVSVAPGQTARISCGGSNIGGKSVHWYQQKPGQAPVLVVYDDSGRPSGIPERFSGSNSGDTATLTISRVEAGDEADYFCQVWDNFGGVFGTGTKVTVL
# B9: TCN-553 (5261_C18) (antibody, V domains shown)
# VH: QVQVVQSGTEVKKPGSSVKVSCQTSGGRFMSYAITWVRQAPGQGLEWMGGIVPVFGTANYAQKFQGRVTITTDDSTRTAYMELSSLRSEDTAVYYCGFRYGSGYGFDSWGQGTLVTVSS
# VL: EIVLTQSPGTLSLSPGERATLSCRASQSVSSSYLAWYQKKPGQAPRLLIYGASTRATGIPDRFTGSGSGTDFTLSISRLEPEDFAVYYCQHFGTSVFTFGGGTKVEIK
# B10: TCN-554 (5277_M05) (antibody, V domains shown)
# VH: QVQLVQSGADLKKPGASVKVSCKASGYTFTDYYIHWVRQAPGQGLEWMGWINPESGDTKYAQKFQGRVTMTRDTSITTAYMELGRLRSDDTAVYYCARDVSTTWSWFAPWGQGTLVTVSS
# VL: DIVMTQSPDSLAVSLGERATINCRSSQSIFHNSNNENYLAWYQQKPGQPPKLLIYWASTRESGVPDRFSGSGSGTDFTLTISSLQAEDVAVYFCQQYYNAPLTFGGGTKVEIK
# B11: TCN-545 (5082_I15) (antibody, V domains shown)
# VH: QVQLQQWGAGLLKPSETLSLSCAVFGGSFSDYYWTWIRQPPGKGLEWIGEIKHSGRTNYNPSLESRVTISVDTSKNQFSLKLSSVTAADTAIYYCARGTDPDTEGYCRSGSCSAFDFWGQGTLVTVSS
# VL: EIVLTQSPGTLSLSPGERATLSCRASHFVNYRSLAWYQQTPGQVPRLLIYGASTRATGIPDRFSGSGSGTDFTLTISRLEPEDFAVYFCQQYGGSPRYTFGQGTRLEIK
# B12: TCN-551 (5243_D01) (antibody, V domains shown)
# VH: EVQLVQSGSEVKKPGESLKISCKGSGYSFSNYWIGWVRHMPGKGLEWMGIIYPGDSDTRYSPSFQGQVTMSADKSSSTVYLQWSSLKASDTAIYYCARRGGHSFGYGSGGDTHSEFDSWGQGTLVTVSS
# VL: QSVLTQSPSVSAAPGQKVTISCSGSDSNIGDYFVCWYQHLPGKPPQLLIYENNKRPSGIPDRFSGSKSGTSATLGITGIQTGDEADYYCATWDGSLSAWVFGGGTKLTVL
# B13: TCN-544 (5082_A19) (antibody, V domains shown)
# VH: QVQLQESGPGLVKPSETLSLTCTVSRGSIGHYFWSWIRQPPGKGLEWIGYISYSGSTKYNPSLRSRVTISVDTSKNQFSLNLNSVTATDTALYYCAREDYDILTGAGPGMEVWGQGTTVTVSS
# VL: QSMLTQPPSASGTPGQRVTISCSGSSSNIGSNTVNWFKHLPGTAPKLLIYRNDLRPSGVPDRFSGSKSGTSASLAISGLQSEDEADYYCATWDDSLNGFYVFGTGTKVTVL
# Molecular target: hemagglutinin on whole inactivated influenza A virions, A/Japan/305/57 H2N2 (Influenza A virus A/Japan/305/1957(H2N2))
row,Binder,ELISA: Virus Binding (OD450)
1,B1,0.17
2,B2,3.4
3,B3,3.16
4,B4,3.41
5,B5,0.06
6,B6,3.45
7,B7,3.63
8,B8,3.64
9,B9,3.49
10,B10,0.07
11,B11,0.06
12,B12,0.06
13,B13,0.07
